# PSTVd stem 3 mutant pool in Nicotiana benthamiana

Region: stem 3 of PSTVd (intermediate strain), upper and lower strand joined, each 5' to 3', the first 8 letters being the upper strand. Wild type: GUGGUUCCGGAACCGC. Varied positions (N): GUGGUUCCGNANNCNN.

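A pool of all variants was put on leaves of three Nicotiana benthamiana plants. Samples came from the inoculated region at 5 days, the leaf margin at 10 and upper systemic leaves at 12.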

Numbers give reads per thousand; 0 = not seen among the reads, higher = more abundant.
Each value is the mean of three plants.
"Pool" is the share in the plasmid pool used as inoculum, on the same scale.
The inoculated region was read from the minus strand, the other sites from the plus strand.
Sequences that differ at fixed positions probably stem from PCR or sequencing errors, and defective variants can be carried along by functional ones.
Wild type was 17.3 per thousand in the pool and the most common sequence in every sample (inoculated region 330, 345, 235; leaf margin 794, 766, 816; systemic leaves 830, 792, 869).
With 27,691-54,225 reads a sample, very low values are single reads.

- GUGGUUCCGUAACCCA (pool 0.939) = inoculated region 0.394; leaf margin 0; systemic leaves 0
- GUGGUUCCGUACCCCU (pool 0.893) = inoculated region 0.776; leaf margin 0.243; systemic leaves 0
- GUGGUUCCGUACCCGU (pool 1.00) = inoculated region 0.331; leaf margin 0; systemic leaves 0
- GUGUUUCCGUAACCGA (pool 0.0154) = inoculated region 0; leaf margin 0; systemic leaves 0
- GUGGUUCCGCAUGCGG (pool 1.03) = inoculated region 0.682; leaf margin 0.0120; systemic leaves 0
- GUGGUUCCGAAGUCUU (pool 1.12) = inoculated region 0.688; leaf margin 1.04; systemic leaves 1.11
- GUGGUUCCGCACCCCU (pool 0.693) = inoculated region 0.174; leaf margin 0; systemic leaves 0
- GUGGUUCCGUAUCCGA (pool 0.739) = inoculated region 0.229; leaf margin 0; systemic leaves 0
- GUGGUUCCGAAUCCCU (pool 0.970) = inoculated region 0.791; leaf margin 0.502; systemic leaves 0
- GUGGUUCCGGAAUCAG (pool 0.908) = inoculated region 0.777; leaf margin 0.0215; systemic leaves 0
- GUGGUUCCGCAAACGG (pool 0.862) = inoculated region 0.212; leaf margin 0; systemic leaves 0
- GUGGUUCCGCAUUCAU (pool 0.646) = inoculated region 0.794; leaf margin 0.424; systemic leaves 0
- GUGGUUCCGGAGCCGC (pool 0.923) = inoculated region 10.8; leaf margin 12.1; systemic leaves 13.0
- GUGGUUCCGCAACCCG (pool 0.739) = inoculated region 0.328; leaf margin 0.0226; systemic leaves 0
- GUGGUUCCCACGCGUA (pool 0.369) = inoculated region 0.715; leaf margin 0.133; systemic leaves 0
- GUGGUUCCGUACACAG (pool 0.769) = inoculated region 0.254; leaf margin 0; systemic leaves 0
- GUGGUUCCGUAGGCGA (pool 0.939) = inoculated region 0.532; leaf margin 0.0120; systemic leaves 0.00811
- GUGGUUCCGGAGUCUU (pool 0.816) = inoculated region 0.794; leaf margin 0; systemic leaves 0
- GUGGUUCCGAAUGCGC (pool 0.723) = inoculated region 0.249; leaf margin 0; systemic leaves 0
- GUGGUUCCGCACGCAA (pool 0.862) = inoculated region 0.247; leaf margin 0; systemic leaves 0
- GUGGUUCCGGAUACAU (pool 0.708) = inoculated region 0.579; leaf margin 0.0963; systemic leaves 0
- GUGGUUCCGUAUGCCA (pool 0.877) = inoculated region 0.380; leaf margin 0; systemic leaves 0
- GUGGUUCCGAAUGCGA (pool 1.09) = inoculated region 0.339; leaf margin 0.0347; systemic leaves 0
- GUGGUUCCGAAAACUG (pool 0.862) = inoculated region 0.268; leaf margin 0.0295; systemic leaves 0

Extract of 2 entries:

- GUGGUUCCGGAGUCUU (pool 0.816): inoculated region 0.794; leaf margin 0; systemic leaves 0
- GUGGUUCCGUAUGCCA (pool 0.877): inoculated region 0.380; leaf margin 0; systemic leaves 0

Reference: Wu et al. 2024, doi:10.1371/journal.ppat.1012142.